From patent EP2769723A1, “Compounds for use in inhibiting HIV capsid assembly” (priority 2013, dated 2014)
Counter-ions that a name gives are not always drawn.

System: wild type NL4.3 HIV-1
Assay: Tissue culture infectivity test, TZM titration of supernatants from infected TZM cells
Type: cell-based
Conditions: Table 5, based on the TZM titration, tested form: HCl
Method: Hits selected in the YFP-screen were further evaluated in the tissue culture experiments with cells infected with the wild type NL4.3 HIV-1. The virus for infection was obtained from co-culture of MT4 cells. The MT4 cells co-culture was synchronized for one week and then used for the infection of fresh MT 4 cells. 48 hrs post-infection was the culture supernatant harvested, cleared by the filtration through […] filter and stored in -80 °C in 1 ml aliquots. Amount of virus was quantified by enzyme-linked immuno sorbent assay (ELISA) with antibodies against HIV-1 CA (3 ng of CA/ml) and blue cell assay (1x10^5 IU/ml), which gives 3 x 10^4 IU/ng of CA.
For compounds testing the TZM cells were seeded on 96-well plate in the density 5 x 10^3 cells per well. The culture media was aspirated approx. 16 hrs later and cells were infected by the wild type NLA.3 HIV-1 by addition of 50J..il of prepared virus stock diluted with 50 µl of complete DMEM. The compounds were added twice to ensure that there are not any preassembled viruses present at the time of their addition. […]
TZM titration was performed on the cells seeded day before on 96-well plate in the density 5 x 10^3 cells per well. […] The luminescence signal was measured on Luminoskan Ascent (Thermo Labsystems) after the transfer of 80 µl of lysate to the flat bottom white polystyrene assay plates (Costar).

Question: `c1cncc(-c2nc(Nc3ccc4[nH]nnc4c3)c3ccccc3n2)c1` [AMR.325] was tested. Which IC50 did it give?
Answer: The IC50 was 8.8 µM.

Molecular target: CA (Human immunodeficiency virus type 1 group M subtype B, UniProt P12493)
Assay: ALPHA screen (AlphaScreen): inhibition of CAI binding to CA
Conditions: read-out: α screen IC50; CAI-biotin peptide / CA-GST; compounds screened at 0.5-100 µM; tested form: 2HCl
Method: The AlphaScreen experiments are performed using Perkin Elmer Enspire plate reader in white 96-well ProxiPlates and PBS supplemented with 0.05% Tween20, 2mM DTT, 2% DMSO. First, Streptavidin-coated Donor beads are used to capture the CAI-biotin peptide. In the other solution, a fusion protein of CA with glutathione-S-transferase (CA-GST) is mixed with GSH Acceptor beads. Both mixtures were incubated and then mixed together. To test the ability of prepared organic compounds to inhibit the CAI binding to CA, they are screened at concentrations between 0.5-100 µM and IC50 values are calculated from the influenced signals.
Upon illumination by laser at 680 nm, Donor beads containing the photosensitizer phthalocyanine convert ambient oxygen to an excited form of singlet oxygen ^1O2. Singlet oxygen can within its half-life of ~ 4 µs diffuse approximately 200 nm in solution. If an Acceptor bead is within that proximity, which is mostly upon CA:CAI interaction, energy is transferred from the singlet oxygen to thioxene derivates within the Acceptor and signal at 520 - 620 nm is emitted.

Question: Which IC50 does the source give for `c1ccc2c(NCCCn3ccnc3)nc(-c3ccncc3)nc2c1` [AMR.347] here?
Answer: The IC50 was greater than 200 µM.

Same assay, conditions: read-out: α screen IC50; CAI-biotin peptide / CA-GST; compounds screened at 0.5-100 µM; tested form: HCl

Question: With `Cn1nnc2ccc(Nc3nc(-c4ccncc4)nc4ccccc34)cc21` [AMR.479] as the molecule, how does the IC50 read?
Answer: The IC50 was 53.7 µM.

Question: With `CN(C)c1ccc(Nc2nc(-c3ccc(Cl)cc3Cl)nc3ccccc23)cc1` [AMR.402] as the molecule, how does the IC50 read?
Answer: Its IC50 is 28.6 µM.

Question: `CN(C)c1cccc(Nc2nc(-c3cccnc3)nc3ccccc23)c1` [AMR.379] was tested. Which IC50 did it give?
Answer: The IC50 was 30.1 µM.

Question: Which IC50 does the source give for `O=[N+]([O-])c1ccc(Nc2nc(-c3ccncc3)nc3ccccc23)c(F)c1` [AMR.424] here?
Answer: The IC50 was 1.9 µM.

Question: `CN(C)c1ccc(Nc2nc(-c3cccnc3)nc3ccccc23)cc1` [AMR.378 .HCl] was tested. Which IC50 did it give?
Answer: Its IC50 is 24.7 µM.

Question: How did the IC50 turn out when `O=[N+]([O-])c1ccc(Nc2nc(-c3ccncc3)nc3ccccc23)c(F)c1` [AMR.448] was run?
Answer: Its IC50 is 2.6 µM.

Question: For `COc1ccc(Nc2nc(-c3cccnc3)nc3ccccc23)cc1OC` [AMR.328], which IC50 is on record?
Answer: The IC50 was greater than 200 µM.

Question: Which IC50 does the source give for `c1cncc(-c2nc(Nc3ccc4[nH]nnc4c3)c3ccccc3n2)c1` [AMR.325] here?
Answer: The IC50 was 1.9 µM.

Question: For `c1ccc2c(NCCCn3ccnc3)nc(-c3ccncc3)nc2c1` [AMR.347], which IC50 is on record?
Answer: The IC50 was 153 µM.

Question: `CN(C)c1ccc(Nc2nc(-c3cccnc3)nc3ccccc23)cc1` [AMR.357] was tested. Which IC50 did it give?
Answer: The IC50 was 66.7 µM.

Question: With `CCOC(=O)c1ccc(Nc2nc(-c3cccnc3)nc3ccccc23)cc1` as the molecule, how does the IC50 read?
Answer: Its IC50 is 14.2 µM.

Question: `Cn1nnc2ccc(Nc3nc(-c4ccncc4)nc4ccccc34)cc21` [AMR.479-MAT] was tested. Which IC50 did it give?
Answer: The IC50 was 123 µM.
